Measurements published in US20230357364A1.

Key:
Conditions in all cases: remark: other sources report otherwise
[1] = target: SARS-CoV-2 RBD (RBD-2) (SARS-CoV-2); test: SPR
[2] = target: SARS-CoV-2 RBD (RBD-2) (SARS-CoV-2); test: ELISA
[3] = target: SARS-CoV-2 RBD (RBD-2) (SARS-CoV-2); test: SPR, Fc-captured IgG
[4] = target: SARS-CoV-2 RBD (RBD-2) (SARS-CoV-2); test: flow, HeLa-ACE2, mAb:RBD=2:1
[5] = target: SARS-CoV-2 RBD (RBD-2) (SARS-CoV-2); test: flow, HeLa-ACE2, mAb:RBD=4:1

B1: L12.bP11A06 (antibody, V domains shown)
VH: EVQLVESGGGLIQPGGSLRLSCAASGLTVSSNYMSWVRQAPGKGLEWVSVIYSGGSTFYADSVKGRFTISRDNSKNTLYLQMNSLRAEDTAVYYCARDLDVYGLDVWGQGTTVTVSS
VL: DIVMTQSPSFLSASVGDRVTITCRASQGISSYLAWYQQKPGKAPKLLIYAASTLQSGVPSRFSGSGSGTEFTLTISSLQPEDFATYYCQQLNSYPPKFTFGPGTKVEIK
Kd [1]: 1.7 nM | EC50 [2]: 0.042 µg/mL | Kd [3]: 5.92 nM | koff [3]: 0.00412 s⁻¹ | kon [3]: 695000 M⁻¹ s⁻¹ | % inhibition of RBD binding to hACE2 [4]: 93.3% | MFI (RBD binding to cell surface) [4]: 817 | % inhibition of RBD binding to hACE2 [5]: 95.9% | MFI (RBD binding to cell surface) [5]: 528
